Compound potency records, mixed from different reports. Data source: NIAID ChemDB in PubChem.

Shared fields: host cell toxicity; cells: MT-4; read-out: CC50

An empty or dashed field is not shown.

compound	read by	value
Cc1nc2ccccc2c(-c2cc(F)c3c(c2C)CCCO3)c1[C@H](OC(C)(C)C)C(=O)O	luminescence	10 µM
CCC(O)(c1ccc(OC)cc1)c1c(C)c(=O)[nH]c(=O)n1COCc1ccccc1	MTT	63.81 µM
Cc1cc(C)cc(S(=O)(=O)c2c(C(=O)NCC(=O)NC(C)C(=O)NN)[nH]c3ccc(Cl)cc23)c1	MTT	100 µM
COc1cc(C[C@@H](C)[C@@H](C)Cc2cc(O)c(OC)c(OC)c2)cc(O)c1OC	MTT	21.88 µg/mL
Cc1c(C(C)c2cccc(F)c2)n(COCc2ccccc2)c(=O)[nH]c1=O	MTT	>339.3 µM
COC(=O)Nc1nc2ccc(S(=O)(=O)N(CC(C)C)C[C@@H](O)[C@H](Cc3ccccc3)NC(=O)c3ccc(O)cc3C)cc2[nH]1		50.1 µM
CCOP(=O)(OCC)C(Cc1ccccn1)N[C@@H](Cc1ccccc1)[C@H](O)CN(CC(C)C)S(=O)(=O)c1ccc(OC)cc1	MTT	13.93 µg/mL
Cc1cccc(C)c1OCC(=O)N[C@@H](Cc1ccccc1)[C@H](O)CN(CC(C)C)S(=O)(=O)c1ccc2ncn(CC(C)C)c2c1		>100 µM
COc1cc2nc(-c3c(F)cccc3Cl)n(Cc3c(F)cccc3Cl)c2cc1Cc1c(F)cccc1Cl		18.75 µM
Nc1ccn([C@H]2CC[C@@H](CO)O2)c(=O)n1		41.4 µM
O=c1ccn(C23C=C[C@@H](CO)[C@@H]2C3)c(=O)[nH]1	MTT	>100 µg/mL
CC(=O)Nc1nc2ccc(S(=O)(=O)N(CC(C)C)C[C@@H](O)[C@H](Cc3ccccc3)NC(=O)O[C@H]3CCOC3)cc2[nH]1		>100 µM
N#Cc1c(N)c2cc(Br)ccc2n(-c2ccc([N+](=O)[O-])cc2)c1=O		>100 µM
Cc1cc(C)cc(S(=O)(=O)c2c(C(=O)NC(C)C(=O)NN)[nH]c3ccc(Cl)cc23)c1		20 µM
CCCCCO[C@]12CS(=O)(=O)O[C@@]13[C@@H](CN2)O[C@@H](n1cc(C)c(=O)[nH]c1=O)[C@@H]3O		>250 µM
Cc1cc(C)cc(S(=O)(=O)c2c(C(=O)NCC(N)=O)[nH]c3ccc(Cl)cc23)c1		30 µM
CCc1c(Cc2cc(C)cc(C)c2)n(COCC#Cc2ccc(NC(=O)C(F)(F)F)cc2)c(=O)[nH]c1=O	MTT	36 µM
CCOP(=O)(OCC)C(Cc1ccccc1)N[C@@H](Cc1ccccc1)[C@H](O)CN(CC(C)C)S(=O)(=O)c1ccc(OC)cc1	MTT	13.25 µg/mL
Cc1cn([C@H]2C[C@@H](OCCP(=O)(O)O)CO2)c(=O)[nH]c1=O		>250 µM
Cc1ccc(C(C)(O)c2c(C)c(=O)[nH]c(=O)n2COCc2ccccc2)cc1	MTT	141.6 µM
CC1=C(/C=C/C=C/C=C/C=C/C(=O)OC[C@H]2O[C@@H](n3ccc(N)nc3=O)CS2)C(C)(C)CCC1		40 µM
[C-]#[N+][C@H]1C[C@H](n2ccc(=O)[nH]c2=O)O[C@@H]1CO		500 µM
CCN(CC)CCOc1ccc(NC(=O)COc2ccccc2C(=O)c2ccc(OC)cc2)cc1		8.83 µM
CCc1c(Cc2ccccc2C)n(COCC#Cc2ccc(N)cc2)c(=O)[nH]c1=O	MTT	39 µM
CC(=O)OC[C@H]1O[C@@H](n2ccc(N)nc2=O)CS1		350 µM
Nc1nc(N)c2ncn([C@H]3C=C[C@@H](CO)O3)c2n1		34 µM
CCc1c(Cc2cc(C)cc(C)c2)n(COCC#Cc2cc(C(F)(F)F)cc(C(F)(F)F)c2)c(=O)[nH]c1=O	MTT	70 µM
CCC(O)(c1cccc(C)c1)c1c(C)c(=O)[nH]c(=O)n1COCc1ccccc1	MTT	154 µM
Cc1cc(OCC(=O)N[C@@H](Cc2ccccc2)[C@H](O)CN(CC(C)C)S(=O)(=O)c2ccc3nc[nH]c3c2)no1		>100 µM
CC(NC(=O)c1[nH]c2ccc(Cl)cc2c1S(=O)(=O)c1ccccc1)C(N)=O		64 µM
CCc1c(Cc2cc(C)cc(C)c2)n(COCC#Cc2ccc(N)cc2)c(=O)[nH]c1=O	MTT	40 µM
COc1cc2c(c(OC)c1OC)-c1c(cc3c(c1OC)OCO3)[C@H](OC(=O)c1ccccc1)[C@@](C)(O)[C@@H](C)C2	MTT	79.43 µg/mL
Cc1cn(CCO[C@H]2C=C[C@@H](CO)O2)c(=O)[nH]c1=O	MTT	29 µg/mL
C#CCO[C@]12CS(=O)(=O)O[C@@]13[C@@H](CN2)O[C@@H](n1cc(C)c(=O)[nH]c1=O)[C@@H]3O[Si](C)(C)C(C)(C)C		49 µM
CCC(Cc1cccc(NS(=O)(=O)c2ccc(C(F)(F)F)cn2)c1)c1cc(O)c(C(c2ccccc2)C2CC2)c(=O)o1		71.4 µM
Cc1ccc(-n2c(=O)c(C#N)c(N)c3ccc(Cl)cc32)cn1		>100 µM
C=C(c1ccc(F)cc1)c1c(C)c(=O)[nH]c(=O)n1COCc1ccccc1	MTT	151 µM
COc1cc2c(cc1Cc1c(F)cccc1Cl)nc(-c1c(F)cccc1Cl)n2Cc1c(F)cccc1Cl		127 µM
COC(=O)Nc1nc2ccc(S(=O)(=O)N(CC(C)C)C[C@@H](O)[C@H](Cc3ccccc3)NC(=O)COc3c(C)cc(N(C)C)cc3C)cc2[nH]1		>100 µM
C=CCn1cc(COCn2c(Cc3cc(C)cc(C)c3)c(CC)c(=O)[nH]c2=O)nn1	MTT	>100 µM
CC(C)CN(C[C@@H](O)[C@H](Cc1ccccc1)NC(=O)OCc1cncs1)S(=O)(=O)c1ccc2ncn(CCc3ccccc3)c2c1		>100 µM
CCO[C@]12CS(=O)(=O)O[C@@]13C(CN2)O[C@@H](n1cc(C)c(=O)[nH]c1=O)[C@@H]3O[Si](C)(C)C(C)(C)C		24.8 µM
CC(=O)NCc1cccc(-c2ccc3c(N)c(C#N)c(=O)n(-c4ccc(C)c(C#N)c4)c3c2)c1		19.83 µM
C/C1=C\C=C\C2(C)C=C(CO[C@H]3O[C@H](CO)[C@H](O)[C@H](O)[C@H]3O)C(C)CC23OC([O-])C(C3=O)C(O)/C=C/C2(C)C=C(C=O)C(C)CC23OC([O-])C(C3=O)C(O)/C(C)=C/C=C/C2C=C(CO[C@H]3O[C@H](CO)[C@H](O)[C@H](O)[C@H]3O)C(C)CC23OC([O-])C(C3=O)C(O)/C=C/C2(C)C=C(C=O)C(C)CC23OC([O-])C(C3=O)C1O		100 µg/mL
CCCCO[C@]12CS(=O)(=O)O[C@@]13[C@@H](CN2)O[C@@H](n1cc(C)c(=O)[nH]c1=O)[C@@H]3O		>125 µM
N#Cc1cc2ccc(N[C@@H]3CCNC3)cc2n(-c2ccc([N+](=O)[O-])cc2)c1=O		>32 µM
Cc1cn([C@H]2C=C[C@@H](CP(=O)(O)O)O2)c(=O)[nH]c1=O		196 µg/mL
C=C(c1cc(OC)cc(OC)c1)c1c(C)c(=O)[nH]c(=O)n1COCc1ccccc1	MTT	133 µM
COC(=O)Nc1nc2ccc(S(=O)(=O)N(CC(C)C)C[C@@H](O)[C@H](Cc3ccccc3)NC(=O)COc3c(C)cc(CN)cc3C)cc2[nH]1		13.8 µM
COc1cc2nc(-c3c(F)cccc3F)n(Cc3c(F)cccc3F)c2cc1Cc1c(F)cccc1F		31.35 µM
Nc1nc(N)c2ncn([C@H]3CC[C@@H](CO)O3)c2n1		404 µM
CC(=O)Nc1ccn([C@H]2CS[C@@H](COC(C)=O)O2)c(=O)n1		330 µM
Nc1ncnc2c1ncn2[C@H]1C[C@@H](OCCP(=O)(O)O)CO1		>250 µM
CC(C)CN(C[C@@H](O)[C@H](Cc1ccccc1)NC(=O)OCc1cncs1)S(=O)(=O)c1ccc2ncn(CC(C)C)c2c1		63.1 µM
N#Cc1cc2ccc(O[C@H]3CCNC3)cc2n(-c2ccc([N+](=O)[O-])cc2)c1=O		>32 µM
COc1cc(/C=C/C(=O)OCCCc2ccc(O[C@@H](COC(=O)/C=C/c3ccc(O)c(OC)c3)[C@@H](OC)c3ccc(O)c(OC)c3)c(OC)c2)ccc1O	luminescence	>10 µM
CCc1c(Cc2cc(C)cc(C)c2)n(COCC#Cc2ccc(CO[Si](c3ccccc3)(c3ccccc3)C(C)(C)C)cc2)c(=O)[nH]c1=O	MTT	>100 µM
NC(=O)CC[C@H](NC(=O)COc1cccc(NC(=O)[C@@H](N)Cc2ccc(O)cc2)c1)C(=O)N[C@@H](Cc1c[nH]c2ccccc12)C(=O)N[C@@H](CC(=O)O)C(=O)N[C@@H](Cc1ccccc1)C(=O)NCC(=O)O		≥1000 µg/mL
CC(C)c1c(C(C)c2ccc(F)cc2)n(COCc2ccccc2)c(=O)[nH]c1=O	MTT	33.73 µM
COc1cc2c(cc1Cc1cccc(Cl)c1F)c(=O)c(C(=O)O)cn2[C@H](CO)C(C)C	luminescence	3.091 µM

The first 8 rows once more:

compound,read by,value
Cc1nc2ccccc2c(-c2cc(F)c3c(c2C)CCCO3)c1[C@H](OC(C)(C)C)C(=O)O,luminescence,10 µM
CCC(O)(c1ccc(OC)cc1)c1c(C)c(=O)[nH]c(=O)n1COCc1ccccc1,MTT,63.81 µM
Cc1cc(C)cc(S(=O)(=O)c2c(C(=O)NCC(=O)NC(C)C(=O)NN)[nH]c3ccc(Cl)cc23)c1,MTT,100 µM
COc1cc(C[C@@H](C)[C@@H](C)Cc2cc(O)c(OC)c(OC)c2)cc(O)c1OC,MTT,21.88 µg/mL
Cc1c(C(C)c2cccc(F)c2)n(COCc2ccccc2)c(=O)[nH]c1=O,MTT,>339.3 µM
COC(=O)Nc1nc2ccc(S(=O)(=O)N(CC(C)C)C[C@@H](O)[C@H](Cc3ccccc3)NC(=O)c3ccc(O)cc3C)cc2[nH]1,,50.1 µM
CCOP(=O)(OCC)C(Cc1ccccn1)N[C@@H](Cc1ccccc1)[C@H](O)CN(CC(C)C)S(=O)(=O)c1ccc(OC)cc1,MTT,13.93 µg/mL
Cc1cccc(C)c1OCC(=O)N[C@@H](Cc1ccccc1)[C@H](O)CN(CC(C)C)S(=O)(=O)c1ccc2ncn(CC(C)C)c2c1,,>100 µM

CCn is the concentration with n% toxicity to the cells. Conditions beyond the fields shown may differ between rows.